Laboratory results published in patent US20250002564A1 (HOSPITAL FOR SICK CHILDREN, published 2025).

Columns and labels:
[1] = target: T1, SARS-CoV-2 Spike on wild-type pseudotyped virus (PsV) (SARS-CoV-2); assay: cell-based or functional assay
[2] = target: T1, SARS-CoV-2 Spike on wild-type …; assay: cell-based or functional assay; remark: listed apart in the source

B1: VHH-72 fused to the light chain of human apoferritin (24-mer particle) (other)
chain: QVQLQESGGGLVQAGGSLRLSCAASGRTFSEYAMGWFRQAPGKEREFVATISWSGGSTYYTDSVKGRFTISRDNAKNTVYLQMNSLKPDDTAVYYCAAAGLGTVVSEWDYDYDYWGQGTQVTVSGGGGSGGGGSGGGGSGGGGSGGGGSGGGSSQIRQNYSTDVEAAVNSLVNLYLQASYTYLSLGFYFDRDDVALEGVSHFFRELAEEKREGYERLLKMQNQRGGRALFQDIKKPAEDEWGKTPDAMKAAMALEKKLNQALLDLHALGSARTDPHLCDFLETHFLDEEVKLIKKMGDHLTNLHRLGGPEAGLGEYLFERLTLRHD
fold increase in PsV neutralization potency against VHH-72-Fc [1]: ~10000 fold | Median IC50 [2]: 0.13 pM
